Patent publication US7485619B2, “Antimicrobial agent” (priority 2005, dated 2009)
No end group written: not given here.

Experiment: Antigenic activity of mucocidin peptides

| Substance | antigenic activity |
| --- | --- |
| ATSSVSSRVLNRSLQVKVVKITN [Peptide 23-mer-C] | no antigenic activity |
| EYIYNSACSVLSATSSVSSRVLNRSLQVKVVKITN [Peptide 35-mer] | showed antigenic activity |
| isolated native salivary mucocidin: glycosylated native mucocidin isolated from human parotid saliva by ion exchange and Superose 12 chromatography (MHDFWVLWVLLEYIYNSACSVLSATSSVSSRVLNRSLQVKVVKITN) | showed antigenic activity |
